In patent US20100099614A1, “Antimicrobial Peptides and Methods of Use” (priority 2008, published 2010):

Columns and labels:
[1] = tested on: Mycobacterium tuberculosis strain H37Rv
[2] = tested on: Gram-positive bacteria; conditions: for Therapeutic index Fold (fold improvement compared to that of D4), Gram-positive bacteria: relative to D4
[3] = tested on: Zygomycota fungi; conditions: for Therapeutic index Fold (fold improvement compared to that of D4), Zygomycota fungi: relative to D4
[4] = tested on: Ascomycota fungi
[5] = tested on: Gram-negative bacteria; assay: Antibacterial activity (MIC), microtiter dilution; type: cell-based
Protocol: MICs were determined by a standard microtiter dilution method in Mueller Hinton Broth (MHB). Serial dilutions of the 10× compound were added to the microtiter plates in a volume of 10 μL followed by 90 μL of bacteria for an inoculum of 5×10^5 colony-forming units (CFU)/mL. The plates were incubated at 37° C. for 24 h, and the MICs were determined as the lowest peptide concentration that inhibited growth. […]
Alternatively; minimal inhibitory concentrations were determined using a standard microtiter dilution method in a Mueller-Hinton (MH) medium. Briefly, cells were grown overnight at 37° C. in MH broth and diluted in the same medium. Serial dilutions of the peptides were added to the microtiter plates in a volume of 100 μl followed by 10 μl of bacteria for an initial cell concentration of 1×10^5 CFU/ml. Plates were incubated at 37° C. for 24 hours and MICs determined as the lowest peptide concentration that inhibited growth.

[6] = further experiments, relative to D4
[7] = ratio of HC50 (μg/mL) over geometric mean MIC (μg/mL)
[8] = ratio of HC50 (μg/mL) over geometric mean MIC50 (μg/mL)

Compound	Therapeutic index to H37Rv strain Fold (compared to D4) [1, 6] [fold]	Therapeutic index HC50/MIC, Gram-positive bacteria [2, 7]	Therapeutic index Fold (fold improvement compared to that of D4), Gram-positive bacteria [2] [fold]	Therapeutic index HC50/MIC50, Zygomycota fungi [3, 8]	Therapeutic index Fold (fold improvement compared to that of D4), Zygomycota fungi [3] [fold]	Therapeutic index HC50/MIC50, Ascomycota fungi [4, 8]	increase in therapeutic index relative to peptide D4 ([5]; gram-negative bacteria) [fold]	Therapeutic index HC50/MIC, Gram-negative bacteria [5, 7]	Therapeutic index Fold (fold improvement compared to that of D4), Gram-negative bacteria ([5]; relative to D4) [fold]	Therapeutic index MHC50/MIC ([1]; MHC50 (human red blood cells) over MIC (M. tuberculosis))	Therapeutic index to H37Rv strain HC50/MIC ([1]; further experiments)	Therapeutic index Fold (fold improvement compared to that of D4) ([1]; relative to D4) [fold]	increase in therapeutic index relative to peptide D4 ([2]; gram-positive bacteria) [fold]	increase in therapeutic index relative to D4 ([4]; Ascomycota fungi) [fold]	therapeutic index (MHC/MIC) ([5]; gram-negative bacteria)	therapeutic index (MHC/MIC) ([2]; gram-positive bacteria)
CC[C@@H](C)[C@@H](NC(=O)[C@@H](C)NC(=O)[C@@H](CCCCN)NC(=O)[C@@H](CC(C)C)NC(=O)[C@@H](C)NC(=O)[C@H](NC(=O)[C@@H](Cc1c[nH]cn1)NC(=O)[C@@H](CC(C)C)NC(=O)[C@H](NC(=O)[C@H](NC(=O)[C@@H](CCCCN)NC(=O)[C@@H](CCCCN)NC(=O)[C@@H](C)NC(=O)[C@@H](CO)NC(=O)[C@@H](CCCCN)NC(=O)[C@@H](Cc1ccccc1)NC(=O)[C@H](NC(=O)[C@@H](CCCCN)NC(=O)[C@@H](CC(C)C)NC(=O)[C@@H](Cc1ccccc1)NC(=O)[C@@H](CO)NC(=O)[C@@H](CCCCN)NC(=O)[C@@H](Cc1c[nH]c2ccccc12)NC(=O)[C@@H](CCCCN)NC(C)=O)[C@H](C)O)[C@H](C)O)C(C)C)[C@H](C)O)C(=O)N[C@H](CO)C(=O)N[C@H](CO)C(N)=O [D1]	293	55.7	255	109.9	1569	34.9										
CC[C@@H](C)[C@@H](NC(=O)[C@@H](CC(C)C)NC(=O)[C@@H](CCCCN)NC(=O)[C@@H](CC(C)C)NC(=O)[C@@H](CC(C)C)NC(=O)[C@H](NC(=O)[C@@H](Cc1c[nH]cn1)NC(=O)[C@@H](CC(C)C)NC(=O)[C@@H](CCCCN)NC(=O)[C@H](NC(=O)[C@@H](CCCCN)NC(=O)[C@@H](CCCCN)NC(=O)[C@@H](CC(C)C)NC(=O)[C@@H](CO)NC(=O)[C@@H](CCCCN)NC(=O)[C@@H](Cc1ccccc1)NC(=O)[C@H](NC(=O)[C@@H](CCCCN)NC(=O)[C@@H](CC(C)C)NC(=O)[C@@H](Cc1ccccc1)NC(=O)[C@@H](CO)NC(=O)[C@@H](CCCCN)NC(=O)[C@@H](Cc1c[nH]c2ccccc12)NC(=O)[C@@H](CCCCN)NC(C)=O)[C@H](C)O)[C@H](C)O)[C@H](C)O)C(=O)N[C@H](CO)C(=O)N[C@H](CO)C(N)=O [D5]	66		22		201		28	4.4	28	1.3	1.3	61	22	11		
Ac-KWKSFLKTFKSAVKTVLHTALKAISS-NH2 [V681, reference compound]															1.8	2.5
